Reference: ChEMBL document CHEMBL6134901 (J Med Chem, 2025)

Key:
[1] = Selectivity index, ratio of LD50 for cytotoxicity against human HepG2 cells to IC50 for antibacterial activity against Clostridium difficile ATTC43255 assessed as spore germination inhibition
[2] = Selectivity ratio of IC50 for inhibition of bacterial CspB to IC50 for antibacterial activity against Clostridium difficile ATTC43255 assessed as spore germination inhibition
[3] = Selectivity ratio of drug concentration in feces of ICR mouse at 30 mg/kg, po measured after 8 hrs to IC50 for antibacterial activity against Clostridium difficile ATTC43255 assessed as spore germination inhibition; details: in vivo

Compound | Ratio LD50/IC50 [1] | Ratio IC50 [2] | Ratio [3]
Cl.NCc1ccc(-c2nc(-c3ccnc(Oc4ccc(C(F)(F)F)cc4)c3)no2)cc1 | 9 | 2.4 | < 2
Oc1ccc(-c2nc(-c3ccc(OC4CCCC4)cc3)no2)cc1 | 0.9 | – | –
